PubChem BioAssay AID1259414 | Drosophila RNAi Screening Center | 2018

Assay: 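Host factors increasing or decreasing Wolbachia levels in cultured fly cells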 (primary screen)
Cell system: Drosophila JW18 cells infected with Wolbachia
Reagent: long dsRNA against Drosophila genes, 0.25 µg dsRNA per well of a 384-well plate
Timing: 5 days
Conditions: cells persistently infected with Wolbachia before knock-down; no added drug
Measured: 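Automated imaging of bacterial rRNA staining divided by host cell count, reported as plate-normalised robust z-score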
Direction: Wolbachia per cell robust z: higher = more Wolbachia per host cell than the plate typical
Call rule: 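Active if absolute robust z reaches 1.5 in two or more of three replicates, leaving out multi- or no-target dsRNAs, genes unexpressed in JW18 and A1 wells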
The deposit covers about 24,000 reagents; below is a random part of those with a known target gene and a result. Over the whole deposit, about 1,210 (5%) were called active. 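Inactive calls also include excluded dsRNAs with several or no targets, genes unexpressed in JW18, and well A1, regardless of score.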 Unmarked entries are inactive. Names joined by + are all predicted targets of the reagent.

gene knocked down | amplicon | Wolbachia per cell robust z, rep 1 | Wolbachia per cell robust z, rep 2 | Wolbachia per cell robust z, rep 3
CG42392 | DRSC40618 | -0.805 | -0.99 | 0.288
Zip99C | DRSC16320 | -0.156 | -0.21 | -1.5
CG3702 | DRSC00628 | -0.34 | 0.505 | -1.07
hry | DRSC23249 | -0.00208 | 0.421 | -0.035
hry | DRSC30106 | 0.766 | 1.03 | 0.677
nmd | DRSC02856 | -1.11 | -0.22 | -0.889
nmd | DRSC27985 | -8.36 | 0.287 | 1.09
CG4452 | DRSC10422 | 1.25 | 0.0522 | -0.574
CG17636 | DRSC20648 | -0.0627 | -1.03 | -0.146
Prx4 | DRSC08668 | 0.22 | 0.419 | 0.367
Prx4 | DRSC24543 | -2.08 (active) | -1.21 | -2.25
ADD1 | DRSC07135 | -0.356 | 0.23 | 0.281
ADD1 | DRSC26133 | -0.537 | 1.12 | -1.11

The list goes on; the last 3 above are carried over.
gene knocked down | amplicon | Wolbachia per cell robust z, rep 1 | Wolbachia per cell robust z, rep 2 | Wolbachia per cell robust z, rep 3
Prx4 | DRSC24543 | -2.08 (active) | -1.21 | -2.25
ADD1 | DRSC07135 | -0.356 | 0.23 | 0.281
ADD1 | DRSC26133 | -0.537 | 1.12 | -1.11
Nos | DRSC03381 | -0.316 | -0.677 | -0.313
asRNA:CR43469 + Balat | DRSC06852 | -1.55 | 0.482 | 0.118
CG3106 | DRSC18279 | -0.0324 | -0.65 | 0.164
CG3106 | DRSC29465 | -0.0708 | -0.849 | -0.299
RpL26 | DRSC10726 | 2.74 (active) | 3.4 | 2.59
RhoBTB | DRSC11877 | 0.435 | 0.425 | 0.252
asRNA:CR17025 | DRSC28651 | 1.05 | 0.955 | 0.305
Dg | DRSC06718 | -1.39 | 0.0522 | -1.95
lncRNA:CR32661 + lncRNA:CR43157 | DRSC19794 | -1.76 | -0.0286 | 0.0793
CG8407 | DRSC07167 | -0.14 | 0.131 | 1.15
Usp10 | DRSC08282 | 0.24 | -0.219 | 0.115
Usp10 | DRSC08373 | 1.79 | 0.791 | 1.33
Slc25A46a | DRSC20125 | 0.113 | 0.274 | 0.0541
Ir56d | DRSC06590 | 0.44 | 1.05 | 0.806
Ir56d | DRSC28383 | 0.232 | -1 | -1.05
